Anti-infective test results gathered from many reports (values: NIAID ChemDB through PubChem).

Common to all: cytotoxicity tests; cells: CV-1; measure: CC50

CCn is the concentration with n% toxicity to the cells. An empty or dashed field is not shown. Rows are shuffled and stem from different studies.

O=C(O[C@@H]1O[C@@H]2COC(=O)c3cc(O)c(O)c(O)c3-c3c(cc(O)c(O)c3O)C(=O)O[C@H]2[C@@H]2OC(=O)c3cc(O)c(O)c(O)c3-c3c(cc(O)c(O)c3O)C(=O)O[C@@H]12)c1cc(O)c(O)c(O)c1 ; value: >30 µg/mL
CCCc1cc(=O)oc2cc(O)c3c(c12)OC(C)(C)C=C3 ; value: 3 µg/mL
Nc1nc2c(ncn2COCCO)c(=O)[nH]1 ; value: 220 µM
Nc1ncnc2c1ncn2[C@H]1C[C@H](O)[C@H](O)[C@@H]1O ; value: >100 µg/mL
CCNc1nc(=O)c2ncn([C@@H]3O[C@H](CO)[C@@H](O)[C@H]3O)c2c(=O)[nH]1 ; value: >100 µM
O=C(OC1OC2COC(=O)c3cc(Oc4c(C(=O)OC5C(O)OC6COC(=O)c7cc(O)c(O)c(O)c7-c7c(cc(O)c(O)c7O)C(=O)OC6C5OC(=O)c5cc(O)c(O)c(O)c5)cc(O)c(O)c4O)c(O)c(O)c3-c3c(cc(O)c(O)c3O)C(=O)OC2C(OC(=O)c2cc(O)c(O)c(O)c2)C1O)c1cc(O)c(O)c(O)c1 ; value: >30 µg/mL
Nc1ncnc2c1ncn2[C@@H]1C=C[C@@H](O)[C@H]1O ; value: 100 µg/mL
Nc1nc(=O)c2nc(-c3ccccc3)n([C@@H]3O[C@H](CO)[C@@H](O)[C@H]3O)c2c(=O)[nH]1 ; value: >100 µM
CCCc1cc(=O)oc2cc(OCC(C)(C)C(=O)OC)c3c(c12)OC(C)(C)C=C3 ; read by: neutral red ; value: 25 µg/mL
C[C@@]1(O)[C@H](O)[C@@H](COP(=O)(O)OP(=O)(O)OP(=O)(O)O)O[C@H]1n1ccc2c(N)ncnc21 ; value: 180 µM
CCCc1cc(=O)oc2cc(OC(=O)CC)c3c(c12)OC(C)(C)C=C3 ; read by: neutral red ; value: 10 µg/mL
O=C1O[C@H]2[C@@H]3OC(=O)c4cc(O)c(O)c(O)c4-c4c(cc(O)c(O)c4O)C(=O)OC[C@H]2O[C@@H](OC(=O)c2cc(O)c(O)c(O)c2)[C@@H]3OC(=O)c2cc(O)c(O)c3c2[C@@H]2C1=CC(=O)[C@](O)(O3)C2(O)O ; value: >30 µg/mL
CCCc1cc(=O)oc2c(C(=O)CC)c(O)cc(O)c12 ; read by: neutral red ; value: 20 µg/mL
O=C[C@H](OC(=O)c1cc(O)c(O)c(O)c1)[C@@H](OC(=O)c1cc(O)c(O)c(O)c1)[C@@H]1OC(=O)c2cc(O)c(O)c(O)c2-c2c(cc(O)c(O)c2O)C(=O)OC[C@H]1O ; value: >30 µg/mL
CCCc1cc(=O)oc2c3c(c4c(c12)OC(C)(C)[C@H](O)[C@H]4OC(=O)c1cccc(Cl)c1)O[C@H](C)[C@@H](C)C3=O ; value: 7 µg/mL
CC(C)=CCc1cc(-c2coc3cc(O)cc(O)c3c2=O)cc(O)c1O ; value: 15 µg/mL

Repeating the first 2 entries:

compound	read by	value
O=C(O[C@@H]1O[C@@H]2COC(=O)c3cc(O)c(O)c(O)c3-c3c(cc(O)c(O)c3O)C(=O)O[C@H]2[C@@H]2OC(=O)c3cc(O)c(O)c(O)c3-c3c(cc(O)c(O)c3O)C(=O)O[C@@H]12)c1cc(O)c(O)c(O)c1	-	>30 µg/mL
CCCc1cc(=O)oc2cc(O)c3c(c12)OC(C)(C)C=C3	-	3 µg/mL